Literature values in patent publication US20230201309A1, “COMPOSITIONS FOR THE TREATMENT OF A RESPIRATORY CONDITION” (VECTURA LIMITED, priority 2020, published 2023).

Tested on: SARS-CoV-2 infection
Conditions: inhaled nebulised; phase 2 trial

B1: interferon beta-1a: inhaled nebulised interferon beta-1a (SNG001) (protein, UniProt P01574 22-187, looked up)
Interferon beta: MSYNLLGFLQRSSNFQCQKLLWQLNGRLEYCLKDRMNFDIPEEIKQLQQFQKEDAALTIYEMLQNIFAIFRQDSSSTGWNETIVENLLANVYHQINHLKTVLEEKLEKEDFTRGKLMSSLHLKRYYGRILHYLKAKEYSHCAWTIVRVEILRNFYFINRLTGYLRN
  odds of improvement vs placebo: greater odds of improvement
  recovery from SARS-CoV-2 infection vs placebo: recovered more rapidly
